Each structure is given as a SMILES string.

SI data for 13 compounds are collected here from US10206902B2, “Mono- or di-substituted indoles as dengue viral replication inhibitors” (priority 2014, dated 2019).

Common to all, as to format: cell-based, Dengue virus
One data set has as its system DENV-2 16681 strain. The data set can be described thus: DENV-2 antiviral assay (eGFP-labelled virus in Vero cells). The conditions noted are these: SI=CC50/EC50, DENV-2 antiviral assay. As for the experimental part:
The antiviral activity of all the compounds of the invention was tested against DENV-2 16681 strain which was labeled with enhanced green fluorescent protein (eGPF). The culture medium consists of minimal essential medium supplemented with 2% of heat-inactivated fetal calf serum, 0.04% gentamycin (50 mg/mL) and 2 mM of L-glutamine. Vero cells, obtained from ECACC, were suspended in culture medium and 25 μL was added to 384-well plates (2500 cells/well), which already contain the antiviral compounds. Typically, these plates contain a 4-fold serial dilution of 9 dilution steps of the test compound at 200 times the final concentration in 100% DMSO (200 nL). In addition, each compound concentration is tested in quadruplicate (final concentration range: 25 μM-0.00038 μM). Finally, each plate contains wells which are assigned as virus controls (containing cells and virus in the absence of compound), cell controls (containing cells in the absence of virus and compound) and medium controls (containing medium in the absence of cells, virus and compounds). To the wells assigned as medium control, 25 μL of culture medium was added instead of Vero cells. Once the cells were added to the plates, the plates were incubated for 30 minutes at room temperature to allow the cells to distribute evenly within the wells. Next, the plates were incubated in a fully humidified incubator (37° C., 5% CO2) until the next day. Then, DENV-2 strain 16681, labeled with eGFP, was added at a multiplicity of infection (MOI) of 0.5. Therefore, 15 μL of virus suspension was added to all the wells containing test compound and to the wells assigned as virus control. In parallel, 15 μL of culture medium was added to the medium and cell controls. Next, the plates were incubated for 3 days in a fully humidified incubator (37° C., 5% CO2). At the day of the read out, the eGFP fluorescence was measured using an automated fluorescence microscope at 488 nm (blue laser). Using an in-house LIMS system, inhibition dose response curves for each compound were calculated and the half maximal effective concentration (EC50) was determined. Therefore, the percent inhibition (I) for every test concentration is calculated using the following formula: I=100*(ST−SCC)/(SVC−SCC); ST, SCC and SVC are the amount of eGFP signal in the test compound, cell control and virus control wells, respectively. The EC50 represents the concentration of a compound at which the virus replication is inhibited with 50%, as measured by a 50% reduction of the eGFP fluorescent intensity compared to the virus control. The EC50 is calculated using linear interpolation (Table 1).

Data set [1] has as its system DENV-3 strain H87 prototype. Put plainly: Tetravalent RT-qPCR assay Protocol B, serotype 3. The conditions noted are these: serotype 3 H87. As for the experimental part: (§1) Vero cells (4×10^4) were seeded in 96-well plates. […] Following a 2 hour incubation period, the cell monolayer was washed 3 times with assay medium to remove residual, non-adsorbed virus and cultures were further incubated for either 4 days (DENV-2 NGC-Tongalike) or 7 days (DENV-1 Djibouti strain D1/H/IMTSSA/98/606, DENV-3 strain H87 prototype, DENV-4 strain H241′) in the presence of the inhibitor. Supernatant was harvested and viral RNA load was determined by real-time quantitative RT-PCR. The 50% effective concentration (EC50), which is defined as the compound concentration that is required to inhibit viral RNA replication by 50%, was determined using logarithmic interpolation (Tables 7 and 8). RNA was isolated from 100 μL supernatant with the NucleoSpin 96 Virus kit (Filter Service, Duren, Germany) as described by the manufacturer. The sequences of the TaqMan primers (DENV-For, DENV-Rev; Table 5) and TaqMan probes (DENV-Probe Table 5) were selected from non-structural gene 3 (NS3) or NS5, of the respective flaviviruses using Primer Express software (version 2.0; Applied Biosystems, Lennik, Belgium). The TaqMan probe was fluorescently labelled with 6-carboxyfluorescein (FAM) at the 5′ end as the reporter dye, and with minor groove binder (MGB) at the 3′ end as the quencher (Table 5). One-step, quantitative RT-PCR was performed in a total volume of 25 μL, containing 13.9375 μL H2O, 6.25 μL master mix (Eurogentec, Seraing, Belgium), 0.375 μL forward primer, 0.375 μL reverse primer, 1 μL probe, 0.0625 μL reverse transcriptase (Eurogentec) and 3 μL sample. RT-PCR was performed using the ABI 7500 Fast Real-Time PCR System (Applied Biosystems, Branchburg, N.J., USA) using the following conditions: 30 min at 48° C. and 10 min at 95° C., followed by 40 cycles of 15 s at 95° C. and 1 min at 60° C. The data was analyzed using the ABI PRISM 7500 SDS software (version 1.3.1; Applied Biosystems). For absolute quantification, standard curves were generated using 10-fold dilutions of template preparations of known concentrations.
In general terms: Real-time PCR tracks product formation cycle by cycle.

A further data set relates to DENV-2 NGC-Tongalike. The data set can be described thus: Tetravalent RT-qPCR assay Protocol B, serotype 2. The conditions noted are these: serotype 2 NGC-Tongalike. The procedure:
as §1

Consider `COc1cc(NC(C(=O)c2c[nH]c3cc(Cl)ccc23)c2ccc(F)cc2OC)cc(OCCO)c1` (single isomer, unassigned) [Compound 4A, 1-(6-chloro-1H-indol-3-yl)-2-(4-fluoro-2-methoxyphenyl)-2-((3-(2-hydroxyethoxy)-5-methoxyphenyl)amino)ethanone], for which the values for the SI (with DENV-2 16681 strain; in data set [1]; in the data set on DENV-2 NGC-Tongalike) were 3698, 443 and 109414, respectively.
Taken in the same sequence, the figures for `COc1cc(NC(C(=O)c2c[nH]c3c(C)c(Cl)ccc23)c2ccc(F)cc2OC)cc(OCCO)c1` (single isomer, unassigned) [Compound 3A, 1-(6-chloro-7-methyl-1H-indol-3-yl)-2-(4-fluoro-2-methoxyphenyl)-2-((3-(2-hydroxyethoxy)-5-methoxyphenyl)amino)ethanone] were 5120, 232 and 46900.
The corresponding values for `COc1cc(NC(C(=O)c2c[nH]c3c(F)cc(C)cc23)c2ccc(F)cc2OC)cc(OCCO)c1` (single isomer, unassigned) [Compound 12B, 2-(4-fluoro-2-methoxyphenyl)-1-(7-fluoro-5-methyl-1H-indol-3-yl)-2-((3-(2-hydroxyethoxy)-5-methoxyphenyl)amino)ethanone] are 1063, 133 and 8070.
As for `COc1cc(NC(C(=O)c2c[nH]c3cc(OC)c(C)cc23)c2ccc(F)cc2OC)cc(OCCO)c1` (single isomer, unassigned) [Compound 6A, 2-(4-fluoro-2-methoxyphenyl)-2-((3-(2-hydroxyethoxy)-5-methoxyphenyl)amino)-1-(6-methoxy-5-methyl-1H-indol-3-yl)ethanone], the figures for the SI (in the data set with DENV-2 16681 strain; in data set [1]; in the data set on DENV-2 NGC-Tongalike) were 2968, 484 and 39200, respectively.
For the compound `COc1cc(NC(C(=O)c2c[nH]c3c(Cl)c(OC)ccc23)c2ccc(F)cc2OC)cc(OCCO)c1` (single isomer, unassigned) [Compound 8A, 1-(7-chloro-6-methoxy-1H-indol-3-yl)-2-(4-fluoro-2-methoxyphenyl)-2-((3-(2-hydroxyethoxy)-5-methoxyphenyl)amino)ethanone], the SI in the data set with DENV-2 16681 strain was determined as 10020; in data set [1], 324.
Consider `COc1cc(NC(C(=O)c2c[nH]c3cc(F)ccc23)c2ccc(F)cc2OC)cc(OCCO)c1` (single isomer, unassigned) [Compound 1A, 1-(6-fluoro-1H-indol-3-yl)-2-(4-fluoro-2-methoxyphenyl)-2-((3-(2-hydroxyethoxy)-5-methoxyphenyl)amino)ethanone], for which the SI is recorded as 2100 with DENV-2 16681 strain, 207 in data set [1] and 11200 in the data set on DENV-2 NGC-Tongalike.
Regarding `COc1cc(NC(C(=O)c2c[nH]c3c(F)c(F)ccc23)c2ccc(F)cc2OC)cc(OCCO)c1` (single isomer, unassigned) [Compound 5B, 1-(6,7-difluoro-1H-indol-3-yl)-2-(4-fluoro-2-methoxyphenyl)-2-((3-(2-hydroxyethoxy)-5-methoxyphenyl)amino)ethanone], the figures for the SI (with DENV-2 16681 strain; in data set [1]; in the data set with DENV-2 NGC-Tongalike) were 2673, 212 and 30000, respectively.
Taken in the same sequence, the figures for `COc1cc(NC(C(=O)c2c[nH]c3cc(OC)c(F)cc23)c2ccc(F)cc2OC)cc(OCCO)c1` (single isomer, unassigned) [Compound 7A, 2-(4-fluoro-2-methoxyphenyl)-1-(5-fluoro-6-methoxy-1H-indol-3-yl)-2-((3-(2-hydroxyethoxy)-5-methoxyphenyl)amino)ethanone] were 1864, 339 and 9980.
Taken in the same sequence, the figures for `COc1cc(NC(C(=O)c2c[nH]c3c(C)cc(F)cc23)c2ccc(F)cc2OC)cc(OCCO)c1` (single isomer, unassigned) [Compound 9B, 2-(4-fluoro-2-methoxyphenyl)-1-(5-fluoro-7-methyl-1H-indol-3-yl)-2-((3-(2-hydroxyethoxy)-5-methoxyphenyl)amino)ethanone] were 1575, 109 and 17500.
Taken in the same sequence, the figures for `COc1cc(NC(C(=O)c2c[nH]c3cc(F)c(F)cc23)c2ccc(F)cc2OC)cc(OCCO)c1` (single isomer, unassigned) [Compound 10B, 1-(5,6-difluoro-1H-indol-3-yl)-2-(4-fluoro-2-methoxy-phenyl)-2-((3-(2-hydroxyethoxy)-5-methoxyphenyl)amino)ethanone] were 2565, >337 and 6750.
`COc1cc(NC(C(=O)c2c[nH]c3c(C)c(OC)ccc23)c2ccc(F)cc2OC)cc(OCCO)c1` (single isomer, unassigned) [Compound 11A, 2-(4-fluoro-2-methoxyphenyl)-2-((3-(2-hydroxyethoxy)-5-methoxyphenyl)amino)-1-(6-methoxy-7-methyl-1H-indol-3-yl)ethanone]: the figures for the SI (with DENV-2 16681 strain; in data set [1]; in the data set on DENV-2 NGC-Tongalike) were 10981, 261 and 17600, respectively.
As for `COc1cc(NC(C(=O)c2c[nH]c3c(C)c(Cl)ccc23)c2ccc(F)cc2OC)cc(OCCO)c1` (racemic) [Compound 3, 1-(6-chloro-7-methyl-1H-indol-3-yl)-2-(4-fluoro-2-methoxyphenyl)-2-((3-(2-hydroxyethoxy)-5-methoxyphenyl)amino)ethanone], the SI in the data set on DENV-2 16681 strain turned out to be 2915.
On to `COc1cc(NC(C(=O)c2c[nH]c3c(C)c(F)ccc23)c2ccc(F)cc2OC)cc(OCCO)c1` (single isomer, unassigned) [Compound 2B, 2-(4-fluoro-2-methoxyphenyl)-1-(6-fluoro-7-methyl-1H-indol-3-yl)-2-((3-(2-hydroxyethoxy)-5-methoxyphenyl)amino)ethanone], for which the SI with DENV-2 16681 strain stood at 2581; in data set [1], 188; in the data set with DENV-2 NGC-Tongalike, 18500.
